{"source": "patent US4051253A", "about": "“Microbicidal nitrofuryl compounds” (Byk Gulden Lomberg Chemische Fabrik GmbH, priority 1974, dated 1977)", "key": {"[1]": {"system": "S. typhimurium G 46", "test": "Host mediated assay", "conditions": "50 mg/kg s.c."}, "[2]": {"system": "Serratia marcescens strain HY/a 21", "test": "In vitro mutagenicity test on a solid nutrient medium (spot test)", "conditions": "10 mg/ml"}}, "data": [{"smiles": "CN(N=O)C(=N)N[N+](=O)[O-]", "values": [{"measurement": "Mutants/ml, Test", "setting": "[1]", "result": "5.94 . 10^2 Mutants/ml"}, {"measurement": "Mutation frequency in test animals", "setting": "[1]", "result": "5.82 . 10^-7"}, {"measurement": "Mutants, Test", "setting": "[2]", "result": "6.45 × 10^2 colonies/ml"}, {"measurement": "Mutation frequency", "setting": "[2]", "result": "3.3 × 10^-6"}]}]}
